From patent US6673791B2, “Non-nucleoside reverse transcriptase inhibitors” (Boehringer Ingelheim (Canada) Ltd., priority 2001, dated 2004) come the findings set out here.

The test system of assay [1] is WT RT (HIV-1 wild type strain). Briefly: EC50 assay, WT RT strain. The class given is cell-based. Particulars: read-out: EC50 WT RT.
Assay [2] concerns the target Y188L mutant RT (HIV-1 RT) (Human immunodeficiency virus type 1 group M subtype B, UniProt P03366, Y787L). Conditions: read-out: IC50 Y188L.
A further assay addresses WT RT (HIV-1 RT) (Human immunodeficiency virus type 1 group M subtype B, UniProt P03366). Particulars: read-out: IC50 WT RT; wild type RT.
Assay [3] addresses K103N/Y181C double mutant RT (HIV-1 RT) (Human immunodeficiency virus type 1 group M subtype B, UniProt P03366, K702N/Y780C). Conditions: read-out: IC50 K103N/Y181C.
Assay [4] addresses V106A mutant RT (HIV-1 RT) (Human immunodeficiency virus type 1 group M subtype B, UniProt P03366, V705A). Particulars: read-out: IC50 V106A.

A value given as a limit tells only on which side of the number the result lay.

By EC50 is commonly meant the midpoint of the concentration-response curve.

As for `CCN1c2ncc(CCOc3cccc4c(NS(C)(=O)=O)cccc34)cc2C(=O)N(C)c2ccc(F)nc21`, the 50% effective concentration (EC50) in assay [1] is < 100 nM. In addition, the IC50 in assay [2] was 100 to 1000 nM; on WT RT (HIV-1 RT) it was < 100 nM; in assay [3] it was < 100 nM; in assay [4], 100 to 1000 nM.
